Measured data: PubChem BioAssay AID624099 (ICCB-Longwood, 2012)
In all, the deposit lists about 21,000 reagents; shown is a part drawn at random. In the full data, 497 (2.4%) were called active. 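Higher z means weaker E2 silencing; only reporter increases were scored, and knock-downs that hurt cell survival may mask genuine repressor factors.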 Entries without a mark were called inactive. Reagents against one gene are numbered here.

Purpose: 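Human genes that papillomavirus E2 requires to repress the HPV18 LCR promoter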 (primary screen)
System: human C33A cervical carcinoma cells (HPV-negative) stably expressing BPV1 E2 and an HPV18 LCR luciferase reporter
Knock-down reagent: siRNA pool against human genes, 40 nM
Duration: 72 h
Detection: 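Per-well luciferase luminescence, z-scored on each plate against the plate mean and SD with control wells left out, then averaged across three replicate plates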
Direction: mean z-score and z-score: higher = stronger reporter signal, weaker E2 silencing
Hit rule: 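Mean z ≥ 2 together with z ≥ 2 in two or more of the three replicates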

What is on record for NACA2?
mean z-score: 1.1; z-score, replicate A: 0.88; z-score, replicate B: 1.31; z-score, replicate C: 1.11

What is on record for TARP?
mean z-score: -0.17; z-score, replicate A: 0.14; z-score, replicate B: -0.2; z-score, replicate C: -0.44

What did the screen give for PSME2?
mean z-score: -0.57; z-score, replicate A: -0.77; z-score, replicate B: -0.52; z-score, replicate C: -0.42

For LOC391322, what was measured?
mean z-score: 1.52; z-score, replicate A: 1.5; z-score, replicate B: 1.75; z-score, replicate C: 1.31

How did the screen score EAF1?
mean z-score: -0.97; z-score, replicate A: -1.36; z-score, replicate B: -1.21; z-score, replicate C: -0.35

With CYP4A22, what was measured?
mean z-score: -0.94; z-score, replicate A: -1.34; z-score, replicate B: -0.65; z-score, replicate C: -0.82

For GPR157 #1, what was measured?
mean z-score: -0.73; z-score, replicate A: -0.82; z-score, replicate B: -0.47; z-score, replicate C: -0.89

With GPR157 #2, what was measured?
mean z-score: -0.98; z-score, replicate A: -1.22; z-score, replicate B: -0.71; z-score, replicate C: -1.01

What is on record for IFT46?
mean z-score: 0.92; z-score, replicate A: 0.65; z-score, replicate B: 0.99; z-score, replicate C: 1.11

How did the screen score AIMP1?
mean z-score: -0.08; z-score, replicate A: 0.05; z-score, replicate B: -0.12; z-score, replicate C: -0.18

For WDR91, how do the results read?
mean z-score: -2.16; z-score, replicate A: -2.59; z-score, replicate B: -2.25; z-score, replicate C: -1.62

How did the screen score CERS3?
mean z-score: 0.92; z-score, replicate A: 1.07; z-score, replicate B: 1; z-score, replicate C: 0.7

2 entries from above, arranged by “z-score, replicate B”, high to low.
CYP4A22 → mean z-score: -0.94; z-score, replicate A: -1.34; z-score, replicate B: -0.65; z-score, replicate C: -0.82
EAF1 → mean z-score: -0.97; z-score, replicate A: -1.36; z-score, replicate B: -1.21; z-score, replicate C: -0.35
